Measured values from several laboratories, pooled; numbers as filed in NIAID ChemDB.

Common to all: tests on isolated targets; organism: HIV-1; target: Reverse transcriptase

Blank or dashed fields: not listed here. ICn is the concentration giving n% inhibition. a–b is a range or a potency band. Fold resistance has wild type as its base. Rows are shuffled and stem from different studies. Inhibition is in % at the dose shown (toxicity tests: loss of growth or viability).

smiles	strain or isolate	changes	method	read-out	tested at	value
CC(C)(C#Cc1ccc(NC(=O)CSc2nnnn2-c2ccc(CC3CC3)cc2Cl)c(Cl)c1)NC(=O)c1cc[n+]([O-])cc1	-	RT-K103 Y181C	PicoGreen / fluorescence	IC50	-	<1 µM
O=C(NCCc1ccccc1)Nc1nc(C(F)(F)F)cs1	-	-	nucleotide incorporation	inhibition	10 µg/mL	73–75%
Cc1cc(C)cc(S(=O)(=O)c2c(C(=O)NCCOc3ccccc3)[nH]c3ccc(Cl)c(F)c23)c1	-	Y181C	RT activity / nucleotide incorporation	Ki	-	0.029 µM
N#Cc1csc(NC(=O)NCCc2ccccc2)n1	-	-	nucleotide incorporation	inhibition	0.1 µg/mL	72–73%
CCCN1c2ccccc2N(CC)C(=O)c2ccnnc21	-	-	-	inhibition	33 µM	20%
Cc1ccnc(NC(=O)NCCc2ccccc2)n1	-	-	nucleotide incorporation	inhibition	0.1 µg/mL	9%
CCOC(=O)CN1C(=O)c2ccnnc2Oc2ccc(C)cc21	-	-	ELISA	inhibition	33 µM	26%
Cc1cc(C)cc(S(=O)(=O)c2c(C(=O)NCCn3cccc3)[nH]c3ccc(Cl)c(F)c23)c1	-	L100I	RT activity / nucleotide incorporation	Ki	-	0.03 µM
CCN1c2ncc(CCOc3ccc(/C=C(\C)C(=O)O)c4ccccc34)cc2C(=O)Nc2c(C)cc(Cl)nc21	-	RT-V106A	nucleotide incorporation / radiometric	IC50	-	0.1–1 µM
COc1ccc2c(c1)N(C(C)C)C(=O)c1ccnnc1O2	-	-	ELISA	inhibition	330 µM	74%
CC(C)(C#Cc1ccc(NC(=O)CSc2nnnn2-c2cc(C(F)(F)F)cc(Cl)c2Cl)c(Cl)c1)NC(=O)c1cc[n+]([O-])cc1	-	RT-K103 Y181C	PicoGreen / fluorescence	IC50	-	<1 µM
CCN1C(=O)c2ccnnc2Oc2cc(C)ccc21	-	-	ELISA	inhibition	33 µM	17%
CC(C)(C#Cc1ccc(NC(=O)CSc2nnnn2-c2ccc(C3CC3)cc2Cl)c(Cl)c1)C(=O)NC(C)(C)C(=O)O	-	RT-K103 Y181C	PicoGreen / fluorescence	IC50	-	<1 µM
Cc1nnc2ccc(N3CCc4ccccc4C3)nn12	IIIB	-	RT activity / fluorescence	IC90	-	58.3 µM
CC(C)(C)c1ccc(-n2nnnc2SCC(=O)Nc2ccc(OCC(=O)NN3CCOCC3)cc2Cl)c(Cl)c1	-	RT-K103 Y181C	PicoGreen / fluorescence	IC50	-	<1 µM
COc1cccc(-c2nnc3c4ccccc4c(N4CCc5ccccc5C4)nn23)c1	KER2008	-	RT activity / fluorescence	IC90	-	98.6 µM
Cc1ccc(-n2nnnc2SCC(=O)Nc2ccc(-c3cocn3)cc2Cl)c(Cl)c1	-	RT-K103 Y181C	PicoGreen / fluorescence	IC50	-	<1 µM
C=Cc1nc(SC)nc(N(C)C)c1Cl	-	RT-K103N	nucleotide incorporation / radiometric	Ki	-	>400 µM
CCN1c2ccc(C)cc2N(C)C(=O)c2cc(Cl)nnc21	-	-	-	inhibition	33 µM	13%
CC(C)=CCC/C(C)=C/CC/C(C)=C/CC/C(C)=C/CC/C(C)=C/CC/C(C)=C/Cc1cc(O)ccc1O	-	-	nucleotide incorporation	IC90	-	5.4 µM
CC(C)(C)c1ccc(-n2nnnc2SCC(=O)Nc2ccc(OCC(=O)Nc3ccc(N4CCOCC4)cc3)cc2Cl)c(Cl)c1	WT	-	PicoGreen / fluorescence	IC50	-	<1 µM
COc1ccc2c(c1)CCN(c1nn3c(C)nnc3c3ccccc13)C2	KER2008	-	RT activity / fluorescence	IC90	-	3.68 µM
O=C(CSc1nnnn1-c1ccc(C2CC2)cc1Cl)Nc1ccc(S(=O)(=O)N2CCC(C(=O)O)CC2)cc1Cl	WT	-	PicoGreen / fluorescence	IC50	-	<1 µM
CCCN1C(=O)c2ccnnc2N(CCC)c2ccc(C)cc21	-	-	-	inhibition	330 µM	24%
CCN1c2ncc(CCOc3cccc4c3ccc[n+]4[O-])cc2C(=O)Nc2c(C)cc(Cl)nc21	-	RT-K103N P225H	nucleotide incorporation / radiometric	fold resistance	-	2.2
Fc1cccc(Cl)c1CCNC(=S)Nc1nccs1	-	-	nucleotide incorporation	inhibition	1 µg/mL	77%
CCc1cc(NCc2nc3c(C)ccc(C)c3o2)c(=O)[nH]c1C	-	RT-Y181F	nucleotide incorporation	fold resistance	-	0.5
CCN1C(=O)c2ccnnc2N(C2CC2)c2ccc(C)cc21	-	-	-	inhibition	33 µM	18%
Cc1cc(Cl)c(-n2nnnc2SCC(=O)Nc2ccc(C#CC(C)(C)O)cc2Cl)cc1C(F)(F)F	WT	-	PicoGreen / fluorescence	IC50	-	<1 µM
CCN1c2ncc(CCOc3ccc(C(=O)O)c4c3CCC4)cc2C(=O)N(C)c2cccnc21	-	RT-K103N Y181C	nucleotide incorporation / radiometric	IC50	-	0.1–1 µM
COc1ccc2c(c1)CCN(c1nn3c(C4CC4)nnc3c3ccccc13)C2	KER2008	-	RT activity / fluorescence	IC90	-	3.19 µM
CCN1c2ncc(CCOc3ccc(CC(=O)NN)c4ccccc34)cc2C(=O)N(C)c2ccc(Cl)nc21	-	RT-V106A	nucleotide incorporation / radiometric	fold resistance	-	1–10
CC(C)(O)C#Cc1ccc(NC(=O)CSc2nnnn2-c2cc(Cl)c(C3CC3)cc2Cl)c(Cl)c1	WT	-	PicoGreen / fluorescence	IC50	-	<1 µM
Cc1nnc2c3ccccc3c(N3CCc4ncccc4C3)nn12	IIIB	-	RT activity / fluorescence	IC90	-	11.5 µM
CC(C)(C#Cc1ccc(NC(=O)CSc2nnnn2-c2ccc(C(C)(C)C)cc2Cl)c(Cl)c1)OCC(=O)NCCC(=O)O	-	RT-K103 Y181C	PicoGreen / fluorescence	IC50	-	<1 µM
C=Cc1cc(N(CC)CC)nc(S(C)(=O)=O)n1	-	-	nucleotide incorporation / radiometric	Ki	-	3.5 µM
CC(C)(C#Cc1ccc(NC(=O)CSc2nnnn2-c2ccc(C3CC3)cc2Cl)c(Cl)c1)C(=O)NCCN1CCCC1	WT	-	PicoGreen / fluorescence	IC50	-	<1 µM
CCN1c2ncc(CCOc3ccc4cc(C(=O)NN)ccc4c3)cc2C(=O)N(C)c2cccnc21	-	RT-V106A	nucleotide incorporation / radiometric	fold resistance	-	1
CC(C)(C)c1ccc(-n2nnnc2SCC(=O)Nc2ccc(NC(=O)Cc3ccccc3[N+](=O)[O-])cc2Cl)c(Cl)c1	WT	-	PicoGreen / fluorescence	IC50	-	<1 µM
Cc1nnc2c3ccccc3c(N3CCC4CCCCC4C3)nn12	98US_MSC5016	-	RT activity / fluorescence	IC90	-	31.1 µM
CC(C)(C)c1ccc(-n2nnnc2SCC(=O)Nc2ccc(-c3ccc(OCC(=O)O)c(Cl)c3)cc2Cl)c(Cl)c1	-	RT-K103 Y181C	PicoGreen / fluorescence	IC50	-	<1 µM
CCN1c2ncc(CCOc3ccc(/C=C(\C)C(=O)O)c4ccccc34)cc2C(=O)N(C)c2cccnc21	-	RT-V106A	nucleotide incorporation / radiometric	fold resistance	-	>10
CC(C)(C)c1ccc(-n2nnnc2SCC(=O)Nc2ccc(C(=O)Nc3ccc(O)cc3)cc2Cl)c(Cl)c1	WT	-	PicoGreen / fluorescence	IC50	-	<1 µM
CCCN1C(=O)c2ccnnc2Oc2ccc(C(F)(F)F)cc21	-	-	ELISA	inhibition	33 µM	2%
CCN1c2ccccc2N(C)C(=O)c2ccnnc21	-	-	-	inhibition	33 µM	50%
O=C(O)Cc1ccc(-c2ccc(NC(=O)CSc3nnnn3-c3ccc(C4CC4)cc3Cl)c(Cl)c2)cc1	WT	-	PicoGreen / fluorescence	IC50	-	<1 µM

A second listing of 2 rows from above:

smiles | strain or isolate | changes | method | read-out | tested at | value
Cc1cc(Cl)c(-n2nnnc2SCC(=O)Nc2ccc(C#CC(C)(C)O)cc2Cl)cc1C(F)(F)F | WT | - | PicoGreen / fluorescence | IC50 | - | <1 µM
Cc1ccnc(NC(=O)NCCc2ccccc2)n1 | - | - | nucleotide incorporation | inhibition | 0.1 µg/mL | 9%